The term koff denotes the rate constant with which the complex falls apart. Low readings indicate a long-lived complex, high ones a short-lived complex. The term pKd denotes −log10 of the Kd, conventionally taken in molar units.

By UniProt entry, the sequences of proteins in these tests, tags left out. Residues count along the entry.
UniProt P30530, 26-449: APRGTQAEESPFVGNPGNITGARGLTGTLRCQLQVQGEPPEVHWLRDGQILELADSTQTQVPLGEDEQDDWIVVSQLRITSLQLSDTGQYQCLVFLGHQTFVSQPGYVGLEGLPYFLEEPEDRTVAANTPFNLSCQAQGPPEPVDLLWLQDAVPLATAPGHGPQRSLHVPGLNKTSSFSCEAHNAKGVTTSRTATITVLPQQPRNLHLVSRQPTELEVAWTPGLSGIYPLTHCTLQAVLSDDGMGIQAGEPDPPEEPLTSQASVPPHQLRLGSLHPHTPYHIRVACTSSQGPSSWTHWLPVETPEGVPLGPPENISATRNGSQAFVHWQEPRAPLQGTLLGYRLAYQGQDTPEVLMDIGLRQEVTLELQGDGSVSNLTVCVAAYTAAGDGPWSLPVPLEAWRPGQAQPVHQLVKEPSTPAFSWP

The values that follow come from publication PMC11599018.

Experiment [1] addresses Human Axl (human) (UniProt P30530). Description: AFM single molecule force spectroscopy.
Experiment [2] shares this target. The experiment can be described thus: AFM single molecule force spectroscopy. This is another data set of the same source.
For experiment [3] the target is unchanged. The experiment can be described thus: MST.

pKd: −log10 of the molar value. Where two headings read alike, the source gives them in different places.

For Human Gas6 protein (ligand), in the experiment with Human Axl (human) [1], the binding frequency was 43% and the koff turned out to be 0.264 s⁻¹. The substance also showed an off-rate (koff) with Human Axl (human) [2] of 0.262 s⁻¹. The substance also showed a pKd with Human Axl (human) [3] of 6.90.
